A mixed list of measured activities; the numbers were collected in NIAID ChemDB.

Shared fields: growth or infection tests

a–b is a range or a potency band. Blank or dashed fields: not listed here. Lines come from different laboratories, so protocols vary. Zones are inhibition diameters on agar. A number after MIC or MFC names an inhibition level or a share of isolates. Percent inhibition refers to the dose given; in toxicity tests it is the harm to the cells.

structure,species,strain,read by,setting,read-out,dose,result
CC1CN(c2cc3c(cc2F)c(=O)c(C(=O)O)cn3-c2ccc(F)cc2F)CCN1,Mycobacterium fortuitum,25 isolates,,,MIC50,,2 µg/mL
Cc1c(OCC(F)(F)F)ccnc1CSc1nc2ccccc2[nH]1,Mycobacterium vaccae,ATCC 15483,resazurin,,MIC90,,>100 µM
CCCCCCCCCCCC1OC(c2ccncc2)=NN1C(C)=O,Mycobacterium intracellulare,,agar,,MIC,,6 µg/mL
COc1c(N2CC[C@@H](CN)C2)c(F)cc2c(=O)c(C(=O)O)cn(C3CC3)c12,Mycobacterium smegmatis,D95Y mutant,,,MIC99,,0.125 µg/mL
COc1ccc(CNC(=O)c2c(Cl)nc3ccccn23)cc1,Mycobacterium ulcerans,,fluorescence,,MIC50,,0.01–0.1 µg/mL
COc1c(N2CCC(N)C2)c(F)cc2c(=O)c(C(=O)O)cn(C3CC3)c12,Mycobacterium smegmatis,WT,,,MIC99,,0.125 µg/mL
CCCCC(=O)O[C@H]1[C@H](C)OC(O[C@H]2[C@H](C)[C@@H](O[C@@H]3O[C@H](C)C[C@H](N(C)C)[C@H]3O)C(C)(O)C[C@@H](C)/C(=N\OCCCOc3ccccc3)[C@H](C)[C@@H](O)[C@](C)(O)[C@@H](CC)OC(=O)[C@@H]2C)C[C@@]1(C)OC,Mycobacterium avium complex,20096 (clarithromycin-resistant),,,MIC,,1.56 µg/mL
COc1ccc(-c2c(-c3ccc(OCc4ccccc4)cc3O)n[nH]c2C(F)(F)F)cc1OC,Mycobacterium marinum,,visual reading,,MIC,,>50 µg/mL
C[C@H]1COc2c(N3CCN(C)CC3)c(F)cc3c(=O)c(C(=O)O)cn1c23,Mycobacterium fortuitum,ATCC 6841,,,MBC,,4 µg/mL
CC(C)CCOc1ccc(NC(=S)Nc2ccc(OCCC(C)C)cc2)cc1,Mycobacterium aurum,A+,,,MIC,,2 µg/mL
CC1(C)S[C@@H]2[C@H](NC(=O)[C@H](N)c3ccccc3)C(=O)N2[C@H]1C(=O)O,Mycobacterium luteus,,agar diffusion,,zone,10 µg/mL,1.43 mm
CCc1nc(N)nc(N)c1-c1ccc(Cl)cc1,Mycobacterium avium complex,1408,,,MIC,,32 µg/mL
CC[C@H]1OC(=O)[C@H](C)[C@@H](OC2C[C@@](C)(OC)[C@@H](O)[C@H](C)O2)[C@H](C)[C@@H](O[C@@H]2O[C@H](C)C[C@H](N(C)C)[C@H]2O)C(C)(O)C[C@@H](C)/C(=N\OCCN(C)c2ccccc2)[C@H](C)[C@@H](O)[C@]1(C)O,Mycobacterium avium complex,20096 (clarithromycin-resistant),,,MIC,,25 µg/mL
CC[C@H]1OC(=O)[C@H](C)[C@@H](O[C@H]2C[C@@](C)(OC)[C@@H](O)[C@H](C)O2)[C@H](C)[C@@H](O[C@@H]2O[C@H](C)C[C@H](N(C)C)[C@H]2O)[C@](C)(OC)C[C@@H](C)C(=O)[C@H](C)[C@@H](O)[C@]1(C)O,Mycobacterium avium complex,N-961 (HIV+),,,MIC,,4 µg/mL
OB1OC(N2CCCCC2)c2ccccc21,Mycobacterium luteum,,turbidity,,MBC,,15.6 µg/mL
CO[C@H]1/C=C/O[C@@]2(C)Oc3c(C)c(O)c4c(O)c(c(/C=N/N5CCN(C6CCCC6)CC5)c(O)c4c3C2=O)NC(=O)/C(C)=C\C=C\[C@H](C)[C@H](O)[C@@H](C)[C@@H](O)[C@@H](C)[C@H](OC(C)=O)[C@@H]1C,Mycobacterium avium intracellulare,21 strains,,,MIC50,,0.25 µg/mL
Cc1nn(Cc2cn(CCCn3cc(Cn4nc(C)n(/N=C/c5cccs5)c4=O)nn3)nn2)c(=O)n1/N=C/c1cccs1,Mycobacterium luteus,,agar diffusion,,zone,20 mg/mL,0.6 mm
CCCn1ncc2cc3c(c(OC(C)=O)c2c1=O)-c1c(c(OC)c2c(c1OC(C)=O)C(=O)c1cc(OC(C)=O)c(C)c(OC(C)=O)c1C2=O)CC3,Mycobacterium phlei,SG346,,,MIC,,1600 µg/mL
CC(=O)NC[C@H]1CN(c2ccc3c(c2)OCc2nccn2-3)C(=O)O1,Mycoplasma pneumoniae,,,,MIC,,4 µg/mL
CCOc1ccc(-c2n[nH]c(C)c2-c2ccc(Cl)cc2)c(O)c1,Mycobacterium marinum,,visual reading,,MIC,,>50 µg/mL
CCCCCCCC1SCC(=O)N1NC(=O)c1ccncc1,Mycobacterium intracellulare,,agar,,MIC,,50 µg/mL
CCc1cc(C(N)=S)ccn1,Mycobacterium avium complex,155 strains,agar,,inhibition,5 µg/mL,7.1%
CO[C@H]1/C=C/O[C@@]2(C)Oc3c(C)c(O)c4c(=O)c(c5oc6cc(N7CCN(CC(C)C)CC7)cc(=O)c6nc5c4c3=C2O)NC(=O)/C(C)=C\C=C\[C@H](C)[C@H](O)[C@@H](C)[C@@H](O)[C@@H](C)[C@H](OC(C)=O)[C@@H]1C,Mycobacterium avium complex,N-945 (HIV+),,,MIC,,0.05 µg/mL
CC(=O)NC[C@H]1CN(c2ccc3c(c2)COCc2nccn2-3)C(=O)O1,Mycoplasma pneumoniae,,,,MIC,,8 µg/mL
COC(=O)C1CC(=O)N(c2cccc(OC3=C(Cl)C(=O)c4ccccc4C3=O)c2)C1,Mycobacterium luteum,B-917,,,MIC,,62.5 µg/mL
CC[C@H]1OC(=O)[C@H](C)[C@@H](O[C@H]2C[C@@](C)(OC)[C@@H](OC(C)=O)[C@H](C)O2)[C@H](C)[C@@H](O[C@@H]2O[C@H](C)C[C@H](N(C)C)[C@H]2O)C(C)(O)C[C@@H](C)/C(=N\OCc2ccccc2)[C@H](C)[C@@H](O)[C@]1(C)O,Mycobacterium avium complex,20096 (clarithromycin-resistant),,,MIC,,25 µg/mL
CC[C@H]1OC(=O)[C@H](C)[C@@H](O[C@H]2C[C@@](C)(OC)[C@@H](O)[C@H](C)O2)[C@H](C)[C@@H](O[C@@H]2O[C@H](C)C[C@H](N(C)C)[C@H]2O)[C@](C)(O)C[C@@H](C)C(=O)[C@H](C)[C@@H](O)[C@]1(C)O,Mycobacterium fortuitum,25 isolates,,,MIC50,,>8 µg/mL
OB1OC(N2CCN(C3OB(O)c4ccccc43)CC2)c2ccccc21,Mycobacterium luteum,,turbidity,,MBC,,0.9 µg/mL
CO[C@H]1/C=C/O[C@@]2(C)Oc3c(C)c(O)c4c(=O)c(c5oc6cc(N7CCN(CC(C)C)CC7)cc(=O)c6nc5c4c3=C2O)NC(=O)/C(C)=C\C=C\[C@H](C)[C@H](O)[C@@H](C)[C@@H](O)[C@@H](C)[C@H](OC(C)=O)[C@@H]1C,Mycobacterium ulcerans,Isolate 5155,,,MBC,,0.025 µg/mL
CN1CCCc2cc(CNC(=O)c3c(Cl)nc4ccccn34)ccc21,Mycobacterium ulcerans,,fluorescence,,MIC50,,0.01–0.1 µg/mL
COc1ccc2oc(=S)n(-c3ccc(F)cc3)c(=S)c2c1,Mycobacterium kansasii,My 235/80,,21 d,MIC,,16 µM
CCCCC(=O)O[C@H]1[C@H](C)[C@@H](O[C@@H]2O[C@H](C)C[C@H](N(C)C)[C@H]2O)C(C)(O)C[C@@H](C)/C(=N\OCCCOc2ccccc2)[C@H](C)[C@@H](O)[C@](C)(O)[C@@H](CC)OC(=O)[C@@H]1C,Mycobacterium avium complex,20039 (clarithromycin-susceptible),,,MIC,,3.13 µg/mL
CC1(C)N=C(N)N=C(N)N1OCCCOc1cc(Cl)c(Cl)cc1Cl,Mycobacterium avium complex,DW3,,,MIC,,0.5 µg/mL
COc1ccc2oc(=S)n(-c3cccc(Cl)c3)c(=S)c2c1,Mycobacterium kansasii,My 235/80,,21 d,MIC,,32 µM
CC1COc2c(N3CCN(C)CC3)c(F)cc3c(=O)c(C(=O)O)cn1c23,Mycobacterium fortuitum,ATCC 6841,,,MBC,,4 µg/mL
COc1c(N2CC[C@@H](CN)C2)c(F)cc2c(=O)[nH]c(=O)n(C3CC3)c12,Mycobacterium smegmatis,A91V mutant,,,MIC99,,50 µg/mL
C[C@@H]1CN(c2c(F)c(N)c3c(=O)c(C(=O)O)cn(C4CC4)c3c2F)C[C@H](C)N1,Mycobacterium avium complex,N-966 (HIV+),,,MIC,,1 µg/mL
CCCCCC(CC(=O)N1N=CCCC1C(=O)N[C@H]1COC(=O)C2C[C@@H](O)CNN2C(=O)[C@H](C)NC(=O)[C@@H](CC(C)C)NC1=O)C(=O)O,Mycobacterium aurum,SB66,,,MIC,,6.3 µg/mL
CC(=O)NC[C@H]1CN(c2ccc3c(c2)OCC2=NCCN23)C(=O)O1,Mycoplasma pneumoniae,,,,MIC,,>32 µg/mL
C[C@@H]1CN(c2c(F)c(N)c3c(=O)c(C(=O)O)cn(C4CC4)c3c2F)C[C@H](C)N1,Mycoplasma hominis,20 strains,,,MIC50,,≤0.01 µg/mL
CC(C)=CCC/C(C)=C/Cc1cc2ccc(=O)oc2cc1O,Mycobacterium aurum,PL 104482,,,MIC,,3.4 µM
CN(C)c1ccc(CNC(=O)c2c(Cl)nc3ccccn23)cc1,Mycobacterium ulcerans,,fluorescence,,MIC50,,0.1–1 µg/mL
Cc1cccc(NC(=O)c2ccc3cc(O)ccc3c2)c1,Mycobacterium avium paratuberculosis,Clinical isolate CIT03 (MAP),broth dilution,,MIC,,27 µM
COc1c(N2C[C@@H]3CCCN[C@@H]3C2)c(F)cc2c(=O)n(N)c(=O)n(C3CC3)c12,Mycobacterium smegmatis,WT,,,MIC99,,12.5 µg/mL
N[C@@H]1CONC1=O,Mycobacterium avium complex,155 strains,agar,,inhibition,30 µg/mL,6.5%
CCN(Cc1ccccc1B(O)O)c1ccccc1,Mycobacterium luteum,,turbidity,,MIC,,31.2 µg/mL
Oc1ccc(CCN=C=S)cc1,Mycobacterium scrofulaceum,,visual reading,,MIC,,32 µg/mL
C=C(C)COc1ccc(-c2n[nH]c(C(F)(F)F)c2-c2ccc(Cl)cc2)c(O)c1,Mycobacterium marinum,,visual reading,,MIC,,>50 µg/mL
Cc1ccc2ncc(C(=O)NCc3ccc(N4CCSCC4)cc3)n2c1,Mycobacterium ulcerans,,fluorescence,,MIC50,,1–10 µg/mL
CC(=O)NC[C@H]1CN(c2ccc3c(c2)OCc2cccn2-3)C(=O)O1,Mycoplasma pneumoniae,,,,MIC,,4 µg/mL
COc1ccc2oc(=O)n(-c3ccc(C(F)(F)F)cc3)c(=S)c2c1,Mycobacterium kansasii,My 235/80,,21 d,MIC,,62.5 µM
NNC(=O)c1ccncc1,Mycobacterium avium complex,N-980 (HIV+),,,MIC,,2 µg/mL
CC(=O)NC[C@H]1CN(c2ccc3c(c2)CCc2nccn2-3)C(=O)O1,Mycoplasma pneumoniae,,,,MIC,,4 µg/mL
CC(C)N=c1cc2n(-c3ccc(Cl)cc3)c3ccccc3nc-2cc1Nc1ccc(Cl)cc1,Mycobacterium abscessus,Clinical isolate,broth dilution,,MIC90,,1 µg/mL
COc1ccc(/C=N/n2c(C)nn(Cc3cn(CCCCCn4cc(Cn5nc(C)n(/N=C/c6ccc(OC)cc6)c5=O)nn4)nn3)c2=O)cc1,Mycobacterium luteus,,agar diffusion,,zone,20 mg/mL,0.6 mm
CC(=O)NC[C@H]1CN(c2ccc3c(c2)COc2nccn2-3)C(=O)O1,Mycoplasma pneumoniae,,,,MIC,,16 µg/mL
CC[C@H]1OC(=O)[C@H](C)[C@@H](OC2C[C@@](C)(OC)[C@@H](O)[C@H](C)O2)[C@H](C)[C@@H](O[C@@H]2O[C@H](C)C[C@H](N(C)C)[C@H]2O)C(C)(O)C[C@@H](C)/C(=N\OCC2CCCCC2)[C@H](C)[C@@H](O)[C@]1(C)O,Mycobacterium avium complex,20092 (clarithromycin-resistant),,,MIC,,>50 µg/mL
Oc1cc(OCc2c(F)cccc2Cl)ccc1-c1n[nH]c(C(F)(F)F)c1-c1ccc(Cl)cc1,Mycobacterium marinum,,visual reading,,MIC,,>50 µg/mL
Clc1ccc2c(c1)nc1cc(Nc3ccccc3)c(=NC3CCCCC3)cc-1n2-c1ccccc1,Mycobacterium fortuitum,6842 ATCC,,,MIC,,10 µg/mL
CCCCO/N=C1\[C@H](C)CC(C)(O)[C@H](O[C@@H]2O[C@H](C)C[C@H](N(C)C)[C@H]2O)[C@@H](C)[C@H](O[C@H]2C[C@@](C)(OC)[C@@H](OC(C)=O)[C@H](C)O2)[C@@H](C)C(=O)O[C@H](CC)[C@@](C)(O)[C@H](O)[C@H]1C,Mycobacterium avium complex,20092 (clarithromycin-resistant),,,MIC,,>50 µg/mL
S=c1oc2ccc(Br)cc2c(=S)n1-c1ccc(Cl)cc1,Mycobacterium kansasii,6509/96,,14 d,MIC,,4 µM
CC[C@H]1OC(=O)[C@H](C)[C@@H](O[C@H]2C[C@@](C)(OC)[C@@H](O)[C@H](C)O2)[C@H](C)[C@@H](O[C@@H]2O[C@H](C)C[C@H](N(C)C)[C@H]2O)[C@](C)(O)C[C@@H](C)CN(C)[C@H](C)[C@@H](O)[C@]1(C)O,Mycobacterium abscessus,DSM44196,broth dilution / visual reading,,MIC100,,1–2 µg/mL
Cc1ccc2oc(=S)n(-c3ccc(C(F)(F)F)cc3)c(=S)c2c1,Mycobacterium kansasii,My 235/80,,21 d,MIC,,16 µM
CC[C@H]1OC(=O)[C@H](C)[C@@H](O[C@H]2C[C@@](C)(OC)[C@@H](O)[C@H](C)O2)[C@H](C)[C@@H](O[C@@H]2O[C@H](C)C[C@H](N(C)C)[C@H]2O)[C@](C)(OC)C[C@@H](C)C(=O)[C@H](C)[C@@H](O)[C@]1(C)O,Mycobacterium fortuitum,25 isolates,,,MIC50,,>8 µg/mL